Experimental data from PubChem BioAssay AID1800 (The Scripps Research Institute Molecular Screening Center, 2009).
The list shows a part of the results, in another mix than the full data. The source made the active and inactive calls.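 How the source made its calls: active means inhibition above the mean of all tested compounds plus 3 SD, set per campaign (cut at about 35% in these data); inactive means the rest.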

The compounds below were run on Hepatitis C virus NS3 helicase (assay: HCV NS3 DNA unwinding blockers – biochemical, Cy5 molecular beacon fluorescence, primary screen (AID 1800;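 further: 0% = DMSO wells and 100% = thioflavine S control wells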)). Settings: at 10.9 µM, hits give high values.
In short: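 Test system: hepatitis C virus NS3 helicase domain fragment enzyme. Also added: annealed dual-labelled DNA beacon duplex, ATP-started. Timing: 60 min unwinding reaction at 25 °C after ATP addition. Technique: Cy5 fluorescence. Measure: % inhibition of unwinding.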
With `Cc1cc(C)cc(OP(C)(=O)Nc2cccc(C(F)(F)F)c2)c1` (stereo not given) the inhibition was inactive: -1.73%. `COc1ccccc1OP(C)(=O)Nc1ccc(C)c(C)c1` (stereo not given) was tested, and the inhibition was inactive: -10.2%. In the case of `COc1ccc(OP(C)(=O)Nc2ccccc2Br)cc1` (stereo not given), the inhibition is reported as inactive: 4.67%. In the case of `Cc1nc2ccc3ccccc3c2o1.O=[N+]([O-])c1cc([N+](=O)[O-])c(O)c([N+](=O)[O-])c1`, the inhibition is reported as inactive: -17.1%. For `CP(=O)(OCCOc1ccccc1)OCCOc1ccccc1`, the inhibition was inactive: -2.68%. For `CP(=O)(Nc1ccc(Cl)cc1Cl)Oc1ccccc1` (stereo not given), the inhibition was inactive: 2.06%. For `COc1ccccc1OP(C)(=O)Nc1ccc(Br)cc1` (stereo not given), the inhibition was inactive: -4.8%. For `COc1ccc(OP(C)(=O)Nc2ccccn2)cc1` (stereo not given), the inhibition was inactive: 3.47%. With `CN(C)CCOC(=O)C(O)(c1ccccc1)C1CCCC1` (stereo not given) the inhibition was inactive: -1.39%. For `O=[N+]([O-])c1cc([N+](=O)[O-])c(Nc2ccccn2)c([N+](=O)[O-])c1`, the inhibition was inactive: -3.99%. With `Cc1c(NP(C)(=O)Oc2ccc(C(C)C)cc2)c(=O)n(-c2ccccc2)n1C` (stereo not given) the inhibition was inactive: 0.86%. `COc1ccccc1OP(C)(=O)Nc1ccc(C)cc1C` (stereo not given) was tested, and the inhibition was inactive: -8.43%. `CP(=O)(Nc1ccccn1)Oc1ccccc1` (stereo not given) was tested, and the inhibition was inactive: 1.82%. In the case of `CCc1ccc(OP(C)(=O)O)cc1`, the inhibition is reported as inactive: 7.9%. For `COc1ccc(OP(C)(=O)Nc2ccc(Br)cc2)cc1` (stereo not given), the inhibition was inactive: 7.85%. With `CCN(CC)CC(O)COC(=O)C(O)(c1ccccc1)C1CCCCC1` (stereo not given) the inhibition was inactive: -1.68%. `O=C(OCCCN1CCCC1)C(O)(c1ccccc1)C1CCCCC1` (stereo not given) was tested, and the inhibition was inactive: -16.6%. For `COc1ccccc1OP(C)(=O)Nc1c(C)n(C)n(-c2ccccc2)c1=O` (stereo not given), the inhibition was inactive: 10.6%. `CCc1ccc(OP(C)(=O)Nc2cccnc2)cc1` (stereo not given) was tested, and the inhibition was inactive: 4.55%. For `CP(=O)(Oc1ccccc1)N1CCOC1=O` (stereo not given), the inhibition was inactive: 2.31%. In the case of `CC(C)(C)c1ccc(OP(C)(=O)O)cc1`, the inhibition is reported as inactive: -0.51%. With `COc1ccccc1OP(C)(=O)Nc1ccccc1Br` (stereo not given) the inhibition was inactive: -3.99%. With `CP(=O)(Nc1ccc(Cl)cc1)Oc1ccc(F)cc1` (stereo not given) the inhibition was inactive: 3.77%. For `CN(C)C(=O)c1c([N+](=O)[O-])cc([N+](=O)[O-])cc1[N+](=O)[O-]`, the inhibition was inactive: 13.2%. In the case of `CCOC(=O)c1ccc(NP(C)(=O)Oc2ccc(Cl)cc2)cc1` (stereo not given), the inhibition is reported as inactive: -11.6%. In the case of `CP(=O)(OC12CC3CC(CC(C3)C1)C2)OC12CC3CC(CC(C3)C1)C2`, the inhibition is reported as inactive: -9.65%. With `COc1ccc(OP(C)(=O)Nc2cccc(Br)c2)cc1` (stereo not given) the inhibition was inactive: 4.27%. For `CN(C)CCOC(=O)C(O)(c1ccccc1)C1CCCCC1` (stereo not given), the inhibition was inactive: 1.56%. `COc1ccc(NP(C)(=O)Oc2ccccc2OC)cc1` (stereo not given) was tested, and the inhibition was inactive: 3.45%. For `O=[N+]([O-])c1ccc(OP2(=O)COCCO2)cc1` (stereo not given), the inhibition was inactive: -2.2%. In the case of `O=[N+]([O-])c1cc([N+](=O)[O-])c(NCC2CCS(=O)(=O)C2)c([N+](=O)[O-])c1` (stereo not given), the inhibition is reported as inactive: 10.8%. For `Cc1cc(-c2cccc3ccccc23)c(C)cn1.O=[N+]([O-])c1cc([N+](=O)[O-])c(O)c([N+](=O)[O-])c1`, the inhibition was inactive: 1.88%. `CP(=O)(Nc1ccc(SC(F)(F)F)cc1)Oc1ccc(F)cc1` (stereo not given) was tested, and the inhibition was inactive: -7.13%. In the case of `CCOP(C)(=S)SCC(=O)NC(C)(CC)C(=O)O` (stereo not given), the inhibition is reported as inactive: 9.56%. `CP(=O)(Nc1ccc2c(c1)OCCO2)Oc1ccccc1` (stereo not given) was tested, and the inhibition was inactive: -9.18%. `Cc1ccccc1NP(C)(=O)Nc1ccccc1C` was tested, and the inhibition was inactive: -6.99%. In the case of `CP(=O)(Nc1ccccc1F)Oc1ccccc1` (stereo not given), the inhibition is reported as inactive: 5.92%. For `CC(C)c1ccc(OP(C)(=O)Nc2ccc(SC(F)(F)F)cc2)cc1` (stereo not given), the inhibition was inactive: -8.44%. `O=C(OC1CN2CCC1CC2)c1ccc([N+](=O)[O-])cc1` (stereo not given) was tested, and the inhibition was inactive: 5.61%. `O=C(OCCN1CCN(CCOCc2ccccc2)CC1)C(O)(c1ccccc1)c1ccccc1` was tested, and the inhibition was inactive: -36.7%. `CCOC(=O)c1ccc(NP(C)(=O)Oc2ccc(F)cc2)cc1` (stereo not given) was tested, and the inhibition was inactive: -7.37%. `COc1ccc(OP(C)(=O)Nc2ccc(SC(F)(F)F)cc2)cc1` (stereo not given) was tested, and the inhibition was inactive: -1.27%. In the case of `CCN(CC)CCCOC(=O)C(O)(c1ccccc1)C1CCCCC1` (stereo not given), the inhibition is reported as inactive: -0.09%. In the case of `CP(=O)(Nc1ccccc1)Oc1ccc(F)cc1` (stereo not given), the inhibition is reported as inactive: -7.15%. For `O=[N+]([O-])c1cc([N+](=O)[O-])c(OC2CCCCC2O)c([N+](=O)[O-])c1` (stereo not given), the inhibition was inactive: 8.92%. `CCCCCOc1ccc(NP(C)(=O)Oc2ccc(Cl)cc2Cl)cc1` (stereo not given) was tested, and the inhibition was inactive: 20.9%. `O=C(O)c1cccc(Nc2c([N+](=O)[O-])cc([N+](=O)[O-])cc2[N+](=O)[O-])c1` was tested, and the inhibition was inactive: 18.8%. `CC1=NCCc2c1[nH]c1ccccc21.O=[N+]([O-])c1cc([N+](=O)[O-])c(O)c([N+](=O)[O-])c1` was tested, and the inhibition was inactive: -73.5%. With `COc1ccccc1OP(C)(=O)Nc1cccc(Br)c1` (stereo not given) the inhibition was inactive: 13.9%. With `CCOC(=O)c1ccc(NP(C)(=O)Oc2cc(C)cc(C)c2)cc1` (stereo not given) the inhibition was inactive: -9.15%. With `Cc1cc(C)cc(OP(C)(=O)Nc2ccc(C)cc2C)c1` (stereo not given) the inhibition was inactive: -9.89%. With `Cc1ccc(C)c(NP(C)(=O)Oc2ccccc2)c1` (stereo not given) the inhibition was inactive: 2.37%. `CP(=O)(Nc1cccc(Br)c1)Oc1ccccc1` (stereo not given) was tested, and the inhibition was inactive: -10.9%. In the case of `Cc1cc(C)cc(OP(C)(=O)Nc2ccccn2)c1` (stereo not given), the inhibition is reported as inactive: 6.21%. With `O=[N+]([O-])c1cc([N+](=O)[O-])c(-n2nnc3ccccc32)c([N+](=O)[O-])c1` the inhibition was inactive: 2.6%. For `Cc1nc2ccc3ccccc3c2s1.O=[N+]([O-])c1cc([N+](=O)[O-])c(O)c([N+](=O)[O-])c1`, the inhibition was inactive: 2.39%. `CCOC(=O)C(CC)C1=NC(C)(C)Cc2ccccc21.O=[N+]([O-])c1cc([N+](=O)[O-])c(O)c([N+](=O)[O-])c1` (stereo not given) was tested, and the inhibition was inactive: -0.24%. For `O=[N+]([O-])c1cc([N+](=O)[O-])c(Nc2nnnn2CCO)c([N+](=O)[O-])c1`, the inhibition was inactive: -5.36%. For `CN1CCCCC1COC(=O)C1(O)c2ccccc2CCc2ccccc21` (stereo not given), the inhibition was inactive: -7.52%. `COc1ccccc1OP(C)(=O)Nc1c(C)cccc1C` (stereo not given) was tested, and the inhibition was inactive: -2.64%.
